In this test the target is human ether-à-go-go-related gene potassium channel 1 (hERG), stable HEK 293 cell line (human) (UniProt Q12809).

Consider “recombinant APETx3 (APETx1 T3P) (peptide)”, for which the ΔV1/2 of hERG at 10 μM recombinant APETx3 (T3P), whole-cell patch clamp is 19 mV.

Values taken from article PMC7791793, “Mechanism of hERG inhibition by gating-modifier toxin, APETx1, deduced by functional characterization” (2021).
